Consider one sequence from article PMC9927256, “Structural and Functional Characterization of Rv0792c from Mycobacterium tuberculosis: Identifying Small Molecule Inhibitor against HutC Protein” (Microbiology Spectrum, 2022).

The data set has as its target T1, Rv0792c (HutC, GntR family) (Mycobacterium tuberculosis) (UniProt O86331).
T1 sequence (O86331 whole entry, looked up): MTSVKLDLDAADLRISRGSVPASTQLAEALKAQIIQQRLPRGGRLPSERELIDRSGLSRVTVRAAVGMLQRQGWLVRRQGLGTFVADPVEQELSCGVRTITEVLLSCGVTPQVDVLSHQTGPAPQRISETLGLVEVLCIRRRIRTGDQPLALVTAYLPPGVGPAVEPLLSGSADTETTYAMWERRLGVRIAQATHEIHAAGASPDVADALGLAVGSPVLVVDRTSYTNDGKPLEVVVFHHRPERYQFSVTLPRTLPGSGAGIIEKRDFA
The data set can be described thus: EMSA. As to conditions: 1 uM protein; recombinant protein; label: Cy5; probe letters rebuilt from the primers and the genome. (In general: Mobility shift assays separate free from complexed probe on a gel.)

In the case of “GGATATCAAGACGTATTAAAACGTCTTATACTCACCACGTCAAGCGTGCGTGCGCGGTAGCAGCGGAAGAAGGTCAGCCATGACGTCACCCGTCGCGGTCATCGCCCGGTTCATGCCACGGCCTGACGCTAGGTCGGCCCTGCGCGCTCTCTTGGACGCAATGATTACCCCGACACGGGCCGAGGACGGATGCCGTAGCTACGACCTCTACGAGAGCGCCGACGGCGGCGAGCTGGTGCTTTTCGAACGGTACCGCAGCCGCATCGCGCTCGACGAGCACCGCGGTTCGCCGCACTATCTGAACTACCGGGCACAGGTCGGTGAATTGCTGACCCGGCCCGTCGCGGTGACTGTGCTCGCGCCGCTCGACGAGGCTTCTGCTTAGAGCGGGTAGCACCCAGGCAGCTTGATCCACGCCCGGCACCGGCCGAGCGCTCGGGAACCGCCGCAGACCACCGCAGTCCCCCCGTGGGTTCAGCGGCGCGGCGGCGGGTTGGCTATACCAGCTCTAGAC (double strand) [Rv0792c promoter fragment]”, the binding result is listed as “binds”.
